## HIV-1 NL4-3 point mutations in p6*: replication capacity

The measurements come from Al-Mawsawi et al. 2014 (doi:10.1186/s12977-014-0124-6).

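Random point mutant libraries of HIV-1 NL4-3, one for each of seven fragments, were passaged in CEM T lymphocytes. Sequencing gave the RC index: frequency after two rounds over frequency in the input plasmid.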

Protein: p6* of HIV-1 NL4-3, numbered from its first residue. This is p6* (p6pol) in the Gag-Pol frame, not Gag p6; residue 1 starts at base 2109, after the 8-residue transframe peptide. The source prints no sequence; the chain below is taken from UniProt P12497, a closely related isolate, and fits the source at the 45 positions it covers.
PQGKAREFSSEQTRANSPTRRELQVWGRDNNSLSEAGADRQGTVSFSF
The overlapping Gag p6 frame may change too; the source does not say.
"Other frame" gives the effect on an overlapping gene as the source lists it; other overlaps (genes, RNA elements) are not shown.

RC index: lower means poorer replication; rough cut-offs are 0.1 (lethal) and 0.2 (tolerated).
A change reads original residue, position, new residue.
Clones carried about five changes per kilobase, which can drag down the index of neutral changes.
Base changes are numbered along pNL4-3.
The authors read an index above 1 as above wild type (1.9% of all changes in the genome).

mutation,base,other frame,replication capacity index
P1T,C2109A,Gag silent,0.0492
K4E,A2118G,Gag silent,0.0507
K4T,A2119C,Gag silent,0.0502
R6G,A2124G,Gag silent,0.0812
R6W,A2124T,Gag silent,0.0307
F8L,T2130C,Gag silent,0.132
S9P,T2133C,Gag silent,0.0989
E11K,G2139A,none,0.106
E11D,G2141C,none,0.104
Q12P,A2143C,none,0.0268
T13S,C2146G,none,0.0673
R14G,A2148G,none,0.0848
R14S,A2150T,none,0.0384
A15S,G2151T,none,0.0452
N16D,A2154G,none,0.162
N16S,A2155G,none,0.120
S17R,A2157C,none,0.113
S17G,A2157G,none,0.249
S17C,A2157T,none,0.0482
S17N,G2158A,none,0.199
S17I,G2158T,none,0.0560
P18L,C2161T,none,0.0621
T19P,A2163C,none,0.0678
T19A,A2163G,none,0.0488
R20K,G2167A,none,0.245
R21G,A2169G,none,0.0257
R21K,G2170A,none,0.568
R21I,G2170T,none,0.140
R21S,A2171T,none,0.0239
E22D,G2174T,none,0.103
L23I,C2175A,none,0.0663
V25I,G2181A,none,0.290
V25L,G2181C,none,0.0385
V25D,T2182A,none,0.0559
W26R,T2184C,none,0.0400
W26C,G2186T,none,0.185
G27E,G2188A,none,0.435
G27V,G2188T,none,0.194
R28S,A2192C,none,0.132
D29N,G2193A,none,0.278
D29H,G2193C,none,0.0136
D29Y,G2193T,none,0.137
D29G,A2194G,none,0.0514
D29V,A2194T,none,0.0217
N30S,A2197G,none,0.0584
N30K,C2198A,none,0.145
N31D,A2199G,none,0.0776
S32A,T2202G,none,0.0472
L33F,C2205T,none,0.183
L33H,T2206A,none,0.0218
L33R,T2206G,none,0.0858
S34P,T2208C,none,0.0730
S34L,C2209T,none,0.149
E35K,G2211A,none,0.793
E35Q,G2211C,none,0.0310
E35V,A2212T,none,0.0411
E35D,A2213T,none,0.0539
A36E,C2215A,none,0.0858
G37E,G2218A,none,0.0740
G37V,G2218T,none,0.0230
D39V,A2224T,none,0.0262
R40G,A2226G,none,0.0651
R40K,G2227A,none,0.215
Q41E,C2229G,none,0.0663
G42R,G2232A,none,0.800
T43A,A2235G,none,0.0415
V44L,G2238T,none,0.126
V44E,T2239A,none,0.0216
S45F,C2242T,none,0.290
F46I,T2244A,none,0.0323
F46S,T2245C,none,0.0692
S47G,A2247G,none,0.0674
S47C,A2247T,none,0.0327
F48I,T2250A,none,0.0314
F48L,T2250C,none,0.0747
F48S,T2251C,none,0.0557

Extract of 8 entries:

| mutation | base | other frame | replication capacity index |
|---|---|---|---|
| L23I | C2175A | none | 0.0663 |
| T19A | A2163G | none | 0.0488 |
| L33H | T2206A | none | 0.0218 |
| R14G | A2148G | none | 0.0848 |
| R40K | G2227A | none | 0.215 |
| S34L | C2209T | none | 0.149 |
| S34P | T2208C | none | 0.0730 |
| F46I | T2244A | none | 0.0323 |